# What was measured:
# Assay type in all cases: cell-based
# [1] = test system: USA WA-01 strain of SARS CoV-2; experiment: Example 2 anti-coronavirus activity in Vero E6 cells (qPCR spike RNA); conditions: CC50/EC50, Vero E6 cells
# Procedure: Ten thousand Vero E6 cells were seeded in 100 microliters of culture medium in 96 well plates. The following day serial two-fold dilutions of antiviral compounds or the DMSO-containing vehicle were added to each well. The USA WA-01 strain of SARS CoV-2 was added to each well at a multiplicity of infection of 0.1 thirty minutes later. Cells were incubated for 48 hours, washed twice in PBS and lysed with TRIzol. RNA was extracted using Directzol micro RNA columns. RNA was made into cDNA and assayed for the SARS CoV-2 spike protein and for a housekeeping gene (RPLPO) RNA by qPCR. Data represents the average of duplicate wells. Cellular cytotoxicity was also measured in VERO E6 cells. […] Cytotoxicity (CC50) was assessed using a commercially available MTT assay.
# [2] = test system: SARS-CoV-2 isolate USA-WA1/2020; experiment: Example 3 SARS-CoV-2 infection in Vero E6 cells (qRT-PCR Spike RNA); conditions: Selectivity index, CC50/EC50, Vero E6 cells
# [3] = test system: SARS-CoV-2 isolate USA-WA1/2020; experiment: Example 7 SARS-CoV-2 infection in Vero E6 cells (qRT-PCR); conditions: Selectivity index CC50/EC50, Vero E6 cells
# [4] = test system: SARS-CoV-2 isolate USA-WA1/2020; experiment: Example 7 SARS-CoV-2 infection in PSC-human lung cells (qRT-PCR); conditions: Selectivity index CC50/EC50, PSC-human lung cells
# [5] = test system: SARS-CoV-2 isolate USA-WA1/2020; experiment: Example 7 SARS-CoV-2 infection in Calu-3 cells (qRT-PCR); conditions: Selectivity index CC50/EC50, Calu-3 cells
# [6] = test system: SARS-CoV-2 isolate USA-WA1/2020; experiment: Example 7 SARS-CoV-2 infection in Huh7.5 cells (qRT-PCR); conditions: Selectivity index CC50/EC50, Huh7.5 cells
# [7] = test system: SARS-CoV-2 isolate USA-WA1/2020; experiment: Example 7 SARS-CoV-2 infection in Caco-2 cells (qRT-PCR); conditions: Selectivity index CC50/EC50, Caco-2 cells
smiles,measurement,setting,value
"CCCCCCCCCCCCCCCCCCOC[C@H](COP(=O)(O)OC[C@H]1O[C@@](C#N)(c2ccc3c(N)ncnn23)[C@H](O)[C@@H]1O)OCc1ccccc1 [Compound 15d, 1-O-octadecyl-2-O-benzyl-glyceryl-sn-3-phospho-RVn]",Selectivity Index,[1],>238
same,Selectivity,[2],240
same,Selectivity,[3],699
same,Selectivity,[4],410
same,Selectivity,[5],327
same,Selectivity,[6],449
same,Selectivity,[7],295
